Compound potency records, mixed from different reports. Data source: NIAID ChemDB in PubChem.

Common to all: enzyme or target tests; species: HIV-1; protein: Protease

ICn: concentration for n% inhibition. Conditions beyond the fields shown may differ between rows. An empty or dashed field is not shown.

| SMILES | strain or isolate | method | measure | setting | result |
|---|---|---|---|---|---|
| CCCCCC/C=C/CCCCCCCc1cccc(O)c1C(=O)O | - | HPLC | IC50 | - | 24.9 µM |
| COC(=O)N[C@H](C(=O)N[C@@H](Cc1ccccc1)[C@@H](O)CN(CC(C)C)NC(=O)[C@@H](NC(=O)OC)C(C)C)C(C)C | - | substrate cleavage | IC50 | - | 0.041 µM |
| O=C(N[C@@H](Cc1ccccc1)[C@H](O)CN1CCCCCC12C(=O)Nc1ccccc12)O[C@H]1CO[C@H]2OCC[C@H]21 | - | HPLC | Ki | - | >1000 µM |
| CC(=O)ONc1ccc(S(=O)(=O)N(Cc2ccccc2)C[C@@H](O)[C@H](Cc2ccccc2)NC(=O)CCN2C(=O)c3ccccc3C2=O)cc1 | - | - | IC50 | - | 0.056 µM |
| CC(C)(C)NC(=O)[C@@H]1CCCN1C(=O)C(O)[C@H](Cc1ccccc1)NC(=O)OCc1ccccc1 | - | substrate cleavage | IC50 | - | >10 µM |
| COC(=O)N[C@H](C(=O)N[C@@H](Cc1ccccc1)[C@@H](O)CN(Cc1ccc(OC)cc1)NC(=O)[C@@H](NC(=O)OC)C(C)C)C(C)C | - | substrate cleavage | IC50 | - | 0.016 µM |
| CC(C)(C)NS(=O)(=O)N(C[C@@H](O)[C@H](Cc1ccccc1)NC(=O)OCc1ccccc1)C1CCCCC1 | - | - | IC50 | - | <10 µM |
| CCCCCCCCCCCCCc1cccc(O)c1 | - | HPLC | IC50 | - | >100 µM |
| COC(=O)N[C@H](C(=O)N[C@@H](Cc1ccccc1)[C@@H](O)CN(Cc1ccc(C(F)(F)F)cc1)NC(=O)[C@@H](NC(=O)OC)C(C)C)C(C)C | - | substrate cleavage | IC50 | - | 0.033 µM |
| O=C(N[C@@H](Cc1ccccc1)[C@H](O)CN1CCCCC12C(=O)Nc1ccccc12)O[C@H]1CO[C@H]2OCC[C@H]21 | - | HPLC | Ki | - | >1000 µM |
| CC(C)[C@H](NC(=O)CCc1nc2ccccc2[nH]1)C(=O)N[C@@H](Cc1ccccc1)[C@H](O)CNC[C@@H](O)[C@H](Cc1ccccc1)NC(=O)OC(C)(C)C | - | HPLC | IC50 | pH 5.5 | <10 µM |
| Cc1cccc(C)c1OCC(=O)N[C@@H](Cc1ccccc1)[C@@H](O)C[C@H](Cc1ccccc1)NC(=O)[C@@H](NS(=O)(=O)c1ccccc1)C(C)C | - | substrate cleavage | Ki | - | 0.005 µM |
| COc1ccc(OC(=O)NCCCC(C)(C)CN(C[C@@H](O)[C@H](Cc2ccccc2)NC(=O)O[C@H]2CO[C@H]3OCC[C@H]32)S(=O)(=O)c2ccc3c(c2)OCO3)cc1 | - | fluorescence | Ki | - | <0.001 µM |
| CC(=O)ONc1ccc(S(=O)(=O)N(Cc2ccccc2)C[C@@H](O)[C@H](Cc2ccccc2)NC(=O)CCc2c[nH]c3ccccc23)cc1 | - | - | IC50 | - | >0.1 µM |
| CC(C)CN(C[C@@H](O)[C@H](Cc1ccccc1)NC(=O)OCc1ccccc1)S(=O)(=O)NC(C)C | - | - | IC50 | - | 1 µM |
| Cc1noc2ccc(S(=O)(=O)N(CC(C)C)C[C@@H](O)[C@H](Cc3ccccc3)NC(=O)O[C@H]3CO[C@H]4OCC[C@H]43)cc12 | WT | fluorescence | Ki | - | <0.0001 µM |
| COC(=O)N[C@H](C(=O)N[C@@H](Cc1ccccc1)[C@@H](O)CN(Cc1ccc(OC)c(OC)c1OC)NC(=O)[C@@H](NC(=O)OC)C(C)C)C(C)C | - | substrate cleavage | IC50 | - | 0.034 µM |
| COC(=O)[C@@H]1CCCN1C(=O)C(=O)C(Cc1ccccc1)NC(=O)OCc1ccccc1.COC(=O)[C@@H]1CCCN1C(=O)C(=O)C(Cc1ccccc1)NC(=O)OCc1ccccc1 | - | fluorescence | Ki | - | 0.405 µM |
| CN(C)C(=O)NCCCC(C)(C)CN(C[C@@H](O)[C@H](Cc1ccccc1)NC(=O)O[C@H]1CO[C@H]2OCC[C@H]21)S(=O)(=O)c1ccc(N)cc1 | - | fluorescence | Ki | - | <0.001 µM |
| CC(=O)ONc1ccc(S(=O)(=O)N(CC(C)C)C[C@@H](O)[C@H](Cc2ccccc2)NC(=O)[C@H](CC(C)C)N2C(=O)c3ccccc3C2=O)cc1 | - | - | IC50 | - | 0.019 µM |
| Cc1c(O)cccc1C(=O)N[C@@H](CC(C)C)C(=O)N(Cc1ccccc1)N(CO)C(=O)[C@@H]1CCCN1C(=O)OC(C)(C)C | - | HPLC | IC50 | - | 23 µM |
| CC(C)(C)OC(=O)N[C@@H](Cc1ccccc1)[C@H](O)CNC[C@@H](O)[C@H](Cc1ccccc1)NC(=O)OC(C)(C)[C@H](O)CO | - | HPLC | IC50 | pH 5.5 | <10 µM |
| CC(C)OC(=O)NCCCCC(C)(C)CN(C[C@@H](O)[C@H](Cc1ccccc1)NC(=O)O[C@@H]1CO[C@@H]2OCC[C@@H]21)S(=O)(=O)c1ccc(N)cc1 | - | fluorescence | Ki | - | <0.001 µM |
| CCC(Cc1ccccc1)c1cc(O)c(C(CC)c2ccccc2)c(=O)o1 | - | - | Ki | - | 0.049 µM |
| CC(C)(CCCCCN=C(NC#N)Oc1ccccc1)CN(C[C@@H](O)[C@H](Cc1ccccc1)NC(=O)O[C@H]1CO[C@H]2OCC[C@H]21)S(=O)(=O)c1ccc2c(c1)OCO2 | - | fluorescence | Ki | - | <0.001 µM |
| CC(C)[C@H](NC(=O)c1ccc2ccccc2c1)C(=O)N[C@@H](Cc1ccccc1)[C@H](O)CNC[C@@H](O)[C@H](Cc1ccccc1)NC(=O)OC(C)(C)C | - | HPLC | IC50 | pH 5.5 | <10 µM |
| CCCNC(=O)OCCCC(C)(C)CN(C[C@@H](O)[C@H](Cc1ccccc1)NC(=O)O[C@H]1CO[C@H]2OCC[C@H]21)S(=O)(=O)c1ccc2c(c1)OCO2 | - | fluorescence | Ki | - | <0.001 µM |
| COc1ccc2c(c1)OCCC/C=C\CN(C[C@@H](O)[C@H](Cc1ccccc1)NC(=O)O[C@H]1CO[C@H]3OCC[C@H]31)S2(=O)=O | - | substrate cleavage | Ki | - | 0.00008 µM |
| COC(=O)N[C@H](C(=O)N[C@@H](Cc1ccccc1)[C@@H](O)CN(CCC(C)C)NC(=O)[C@@H](NC(=O)OC)C(C)C)C(C)C | - | substrate cleavage | IC50 | - | 0.016 µM |
| Cc1cccc(C)c1OCC(=O)N[C@@H](Cc1ccccc1)[C@@H](O)C[C@H](Cc1ccccc1)NC(=O)[C@@H](NS(=O)(=O)c1cnn(-c2ccccc2)c1C)C(C)C | - | substrate cleavage | Ki | - | 1.2 µM |
| COC(=O)N[C@H](C(=O)N[C@@H](Cc1ccccc1)[C@H](O)CN(CC1CCCCC1)NC(=O)[C@@H](NC(=O)OC)C(C)C)C(C)C | - | substrate cleavage | IC50 | - | 1.06 µM |
| CCOC(=O)C(C)NCc1cc2cc(S(=O)(=O)N(CC(C)C)C[C@@H](O)[C@H](Cc3ccccc3)NC(=O)O[C@H]3CO[C@H]4OCC[C@H]43)ccc2o1 | WT | fluorescence | Ki | - | <0.0001 µM |
| CSC[C@H](NC(=O)[C@@H](NOC(C)(C)C)C(C)C)C(=O)N[C@@H](CC(C)C)[C@@H](O)C[C@@H](C)C(=O)N[C@H](C(=O)NCC(C)C)C(C)C | - | - | Ki | - | 0.0008 µM |
| COc1ccc(S(=O)(=O)N(CC(C)C)C[C@@H](O)[C@@H]2Cc3ccc(cc3)OCCCCCCc3c(O)cccc3C(=O)N2)cc1 | - | fluorescence | Ki | - | 0.0023 µM |
| CC(C)OC(=O)NCCCC(C)(C)CN(C[C@@H](O)[C@H](Cc1ccccc1)NC(=O)O[C@H]1CO[C@H]2OCC[C@H]21)S(=O)(=O)c1ccc2c(c1)OCO2 | - | fluorescence | Ki | - | <0.001 µM |
| CSCC[C@H](NC(=O)c1cccc(O)c1C)C(=O)N(Cc1ccccc1)N(CCO)C(=O)[C@@H]1CCCN1C(=O)OC(C)(C)C | - | HPLC | IC50 | - | 44 µM |
| CC(C)(CCCCOC(=O)NC1CC1)CN(C[C@@H](O)[C@H](Cc1ccccc1)NC(=O)O[C@H]1CO[C@H]2OCC[C@H]21)S(=O)(=O)c1ccc2c(c1)OCO2 | - | fluorescence | Ki | - | <0.001 µM |
| COC(=O)[C@@H](NC(=O)[C@@H](NC(=O)[C@@H]1CCC[C@H]1[C@@H](O)[C@H](Cc1ccccc1)NC(=O)[C@H](C)NC(=O)[C@H](C)NC(=O)[C@@H](N)CO)C(C)C)C(C)C | - | HPLC | Ki | - | 28 µM |
| CN(C)S(=O)(=O)N(Cc1ccc(F)cc1)C[C@@H](O)[C@H](Cc1ccccc1)NC(=O)OCc1ccccc1 | - | - | IC50 | - | ~10 µM |
| COc1ccc(S(=O)(=O)N(C[C@@H](O)[C@H](Cc2ccccc2)NC(=O)O[C@H]2CO[C@H]3OCC[C@H]32)CC(C)(C)CCCNC(=O)NCC(N)=O)cc1 | - | fluorescence | Ki | - | <0.001 µM |
| CC(C)C[C@H](NC(=O)C(NC(=O)[C@@H](N)C(C)C)c1cc(O)cc(O)c1)C(=O)N[C@@H](Cc1ccccc1)C(=O)C(=O)N[C@H](C(=O)N[C@H](C(=O)N[C@@H](CC(=O)O)C(=O)O)C(C)C)C(C)C | - | HPLC | IC50 | - | 0.037 µM |
| COc1ccc(S(=O)(=O)N(C[C@@H](O)[C@H](Cc2ccccc2)NC(=O)O[C@H]2CO[C@H]3OCC[C@H]32)CC(C)(C)CCN)cc1 | - | fluorescence | Ki | - | <0.001 µM |
| CC[C@@H](C[C@H](O)[C@H](Cc1ccccc1)NC(=O)COc1c(C)cccc1C)NC(=O)[C@@H](NS(=O)(=O)c1ccccc1)C(C)C | - | substrate cleavage | Ki | - | 0.012 µM |
| COC(=O)NCCCCC(C)(C)CN(C[C@@H](O)[C@H](Cc1ccccc1)NC(=O)OC1COCOC1)S(=O)(=O)c1ccc2c(c1)OCO2 | - | fluorescence | Ki | - | <0.001 µM |
| COc1ccc(S(=O)(=O)N(CC(C)C)C[C@@H](O)[C@@H]2Cc3ccc(cc3)OCCCCCCCCc3c(O)cccc3C(=O)N2)cc1 | - | fluorescence | Ki | - | 0.02 µM |
| CC(C)(C)NS(=O)(=O)N(Cc1ccccc1)C[C@@H](O)[C@H](Cc1ccccc1)NC(=O)OCc1ccccc1 | - | - | IC50 | - | ~10 µM |
| COC(=O)NCCCCC(C)(C)CN(C[C@@H](O)[C@H](Cc1ccccc1)NC(=O)O[C@H]1CO[C@H]2OCC[C@H]21)S(=O)(=O)c1cccc2c1OCCO2 | - | fluorescence | Ki | - | <0.001 µM |
| CC(C)(C)OC(=O)N[C@@H](Cc1ccccc1)[C@H](O)CN(C[C@@H](O)[C@H](Cc1ccccc1)NC(=O)OC(C)(C)CO)C(=O)OCC[Si](C)(C)C | - | HPLC | IC50 | pH 5.5 | <10 µM |
| C=C(C)OC(=O)NCCCCC(C)(C)CN(C[C@@H](O)[C@H](Cc1ccccc1)NC(=O)O[C@H]1CO[C@H]2OCC[C@H]21)S(=O)(=O)c1ccc2c(c1)OCO2 | - | fluorescence | Ki | - | <0.001 µM |
| COc1ccc2c(c1)OCCCC/C=C\CC(C)CN(C[C@@H](O)[C@H](Cc1ccccc1)NC(=O)O[C@H]1CO[C@H]3OCC[C@H]31)S2(=O)=O | - | substrate cleavage | Ki | - | 0.058 µM |
| CC(C)(CCCCN)CN(C[C@@H](O)[C@H](Cc1ccccc1)NC(=O)O[C@H]1CO[C@H]2OCC[C@H]21)S(=O)(=O)c1cccc2c1OCO2 | - | fluorescence | Ki | - | <0.001 µM |
| Cc1c(O)cccc1C(=O)N[C@H](C(=O)N(c1ccccc1)N(CO)C(=O)[C@@H]1CCCN1C(=O)OC(C)(C)C)[C@@H](C)O | - | HPLC | IC50 | - | >1000 µM |
| CCOC(=O)NCCCCC(C)(C)CN(C[C@@H](O)[C@H](Cc1ccccc1)NC(=O)O[C@@H]1CO[C@@H]2OCC[C@@H]21)S(=O)(=O)c1ccc2c(c1)OCO2 | - | fluorescence | Ki | - | <0.001 µM |
| COc1ccc(S(=O)(=O)N(CC(C)C)C[C@@H](O)[C@@H]2Cc3ccc(cc3)OCC/C=C/CCc3c(O)cccc3C(=O)N2)cc1 | - | fluorescence | Ki | - | 0.0005 µM |
| CN(C)C(=O)NCCCC(C)(C)CN(C[C@@H](O)[C@H](Cc1ccccc1)NC(=O)O[C@H]1CO[C@H]2OCC[C@H]21)S(=O)(=O)c1cccc(N)c1 | - | fluorescence | Ki | - | <0.001 µM |
| Cc1c(O)cccc1C(=O)N[C@H](C(=O)N(Cc1ccccc1)N(CO)C(=O)[C@@H]1CCCN1C(=O)OC(C)(C)C)[C@@H](C)O | - | HPLC | IC50 | - | 214 µM |
| CNc1cccc(S(=O)(=O)N(C[C@@H](O)[C@H](Cc2ccccc2)NC(=O)O[C@H]2CO[C@H]3OCC[C@H]32)CC(C)(C)CCCCNC(=O)OC(C)C)c1 | - | fluorescence | Ki | - | <0.001 µM |
| COc1ccc2c(c1)OCC/C=C\CN(C[C@@H](O)[C@H](Cc1ccccc1)NC(=O)O[C@H]1CO[C@H]3OCC[C@H]31)S2(=O)=O | - | substrate cleavage | Ki | - | 0.000077 µM |
| COC(=O)NCCCCC(C)(C)CN(C[C@@H](O)[C@H](Cc1ccccc1)NC(=O)O[C@H]1CO[C@H]2OCC[C@H]21)S(=O)(=O)c1cccc(N)c1 | - | fluorescence | Ki | - | <0.001 µM |
| CC(C)(C)OC(=O)N[C@@H](Cc1ccccc1)[C@H](O)CNC[C@@H](O)[C@H](Cc1ccccc1)NC(=O)OC(C)(C)CCOCc1ccccc1 | - | HPLC | IC50 | pH 5.5 | <10 µM |